PubChem BioAssay AID1224833 – University of Georgia | 2016

Assay: 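Host factors restraining rotavirus as candidate antiviral genes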 (primary screen)
Cells: monkey MA104 kidney cells
Knock-down reagent: siRNA pool against human genes, 50 nM
Time to read-out: 48 h knock-down before infection; read 24 h after infection
Challenge: infection with rotavirus strain RV3 two days after transfection; infectious dose for this stage not given
Detection: 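Rotavirus antigen per well by fluorescent immunoassay, normalised to non-targeting control wells on each plate and given as a standard z-score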
Reading the numbers: z-score vs non-targeting control: higher = more rotavirus replication than with non-targeting control
Rule for the call: In these data the active calls have z-score vs non-targeting control at about -1 or lower, or at about 1 or higher
Meaning of the calls: active = z-score beyond 1 either way; inactive = z-score within 1 of zero
Shown is an unselected part of about 12,000 reagents. About 5,600 of all reagents (46%) were called active. 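Active calls cover z-scores past 1 in both directions, so they include lowered as well as raised rotavirus replication.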 Unmarked entries are inactive.

Gene,z-score vs non-targeting control
TRNAU1AP (GeneID 54952),-0.933
ZMAT3 (GeneID 64393),-0.174
PRG3 (GeneID 10394),-1.74 (active)
CRYL1 (GeneID 51084),2.78 (active)
U2AF2 (GeneID 11338),1.74 (active)
TYMSOS (GeneID 494514),-0.601
VCAN (GeneID 1462),0.0919
ARMC3 (GeneID 219681),-0.114
SPRY4 (GeneID 81848),0.647
HIRIP3 (GeneID 8479),-0.853
NOTCH1 (GeneID 4851),-1.37 (active)
GPR31 (GeneID 2853),-1.23 (active)
THSD7B (GeneID 80731),1.09 (active)
SLC2A10 (GeneID 81031),0.475
NYAP1 (GeneID 222950),-0.892
PNPLA3 (GeneID 80339),-0.0416
ADAM9 (GeneID 8754),1.54 (active)
CCSER2 (GeneID 54462),-0.614
TIMM8A (GeneID 1678),-1.34 (active)
SNRPD2 (GeneID 6633),-0.998
PWP2 (GeneID 5822),-0.0415
FGB (GeneID 2244),-1.44 (active)
TMEM209 (GeneID 84928),0.511
ZNF91 (GeneID 7644),-2.25 (active)
AMIGO3 (GeneID 386724),-0.0377
RPL41 (GeneID 6171),1.63 (active)
PIMREG (GeneID 54478),-0.552
GRP (GeneID 2922),-0.17
SIPA1L1 (GeneID 26037),-0.718
AKR1C2 (GeneID 1646),1.4 (active)
BOD1 (GeneID 91272),-1.89 (active)
PARK7 (GeneID 11315),-0.811
RERE (GeneID 473),-0.53
ZFAT (GeneID 57623),-0.937
ERLIN1 (GeneID 10613),0.559
DHRS12 (GeneID 79758),-1.17 (active)
CNOT8 (GeneID 9337),-1.15 (active)
HNRNPCL1 (GeneID 343069),-0.148
ECI2 (GeneID 10455),-2.08 (active)
TAX1BP3 (GeneID 30851),2.19 (active)
HBB (GeneID 3043),-0.923
GP1BA (GeneID 2811),-1.53 (active)
PSME4 (GeneID 23198),-1.85 (active)
RELN (GeneID 5649),0.851
FAM9C (GeneID 171484),-0.893
FCRLA (GeneID 84824),-0.844
MYO1F (GeneID 4542),0.305
HTR1B (GeneID 3351),-0.528
MB21D2 (GeneID 151963),-0.832
REG1A (GeneID 5967),-0.914
SLC2A5 (GeneID 6518),-1.1 (active)
KRT14 (GeneID 3861),-0.105
CNOT11 (GeneID 55571),1.72 (active)
TBX10 (GeneID 347853),0.528
BNIP3L (GeneID 665),0.966
PLPBP (GeneID 11212),-0.813
KIF3C (GeneID 3797),1.68 (active)
TRIM44 (GeneID 54765),-0.569

9 entries from above, arranged by “z-score vs non-targeting control”, lowest first.
Gene,z-score vs non-targeting control
NOTCH1 (GeneID 4851),-1.37 (active)
GPR31 (GeneID 2853),-1.23 (active)
HIRIP3 (GeneID 8479),-0.853
TYMSOS (GeneID 494514),-0.601
ARMC3 (GeneID 219681),-0.114
VCAN (GeneID 1462),0.0919
SPRY4 (GeneID 81848),0.647
THSD7B (GeneID 80731),1.09 (active)
U2AF2 (GeneID 11338),1.74 (active)

The listing continues:
Gene,z-score vs non-targeting control
DEFB113 (GeneID 245927),-0.984
JAGN1 (GeneID 84522),-0.474
DLX1 (GeneID 1745),-0.11
GPHB5 (GeneID 122876),0.305
SYT8 (GeneID 90019),0.188
RRAD (GeneID 6236),1.27 (active)
UBR7 (GeneID 55148),-0.974
CBX8 (GeneID 57332),-1.9 (active)
ELAPOR2 (GeneID 222223),-1 (active)
DEGS2 (GeneID 123099),3.08 (active)
APCDD1 (GeneID 147495),0.722
FKBP1B (GeneID 2281),-0.888
GORASP2 (GeneID 26003),-0.806
AHSA2P (GeneID 130872),-1.8 (active)
UPK1B (GeneID 7348),-0.126
MRPL45 (GeneID 84311),1.21 (active)
STRC (GeneID 161497),-0.279
PSMD3 (GeneID 5709),1.26 (active)
ZFP90 (GeneID 146198),0.076
CLN5 (GeneID 1203),-1.23 (active)
SLC36A3 (GeneID 285641),-0.549
FAM86C1P (GeneID 55199),-1.19 (active)
C6orf47 (GeneID 57827),-0.327
GLYATL1 (GeneID 92292),-0.814
SH3BP5L (GeneID 80851),-0.608
PDXP (GeneID 57026),-1.66 (active)
ARHGAP27 (GeneID 201176),2.28 (active)
OR52H1 (GeneID 390067),-0.123
PCDH18 (GeneID 54510),-0.075
MYCBP (GeneID 26292),-0.724
SIX4 (GeneID 51804),-2.09 (active)
CLEC14A (GeneID 161198),0.54
PHLDB1 (GeneID 23187),-1.35 (active)
CFAP157 (GeneID 286207),0.51
DOC2B (GeneID 8447),-0.488
SLC25A5 (GeneID 292),0.623
HTN3 (GeneID 3347),-0.895
H2AC7 (GeneID 3013),-3.39 (active)
LRRC4B (GeneID 94030),1.42 (active)
SFR1 (GeneID 119392),-1.61 (active)
EGLN3 (GeneID 112399),0.614
SPAM1 (GeneID 6677),-2.41 (active)
GABBR2 (GeneID 9568),1.21 (active)
IGSF1 (GeneID 3547),-0.607
HEMK2 (GeneID 29104),-1.05 (active)
PROSER2 (GeneID 254427),-0.719
ABLIM3 (GeneID 22885),-1.51 (active)
FAM107B (GeneID 83641),0.913
MED31 (GeneID 51003),-1.42 (active)
GLIPR2 (GeneID 152007),-0.545
VSTM2A (GeneID 222008),0.644
NPAS4 (GeneID 266743),-2.39 (active)
